Results of unrelated studies side by side (data: NIAID ChemDB).

All rows: host cell toxicity; endpoint: CC50

An empty or dashed field is not shown. CCn is the concentration with n% toxicity to the cells. Rows are shuffled and stem from different studies.

structure,read by,cell line,value
CCn1c(-c2ccccc2)c(C)c(=O)c2cc(NCC(C)C)ccc21,MTT,HELA-OHIO,>5 µg/mL
Cc1cc(C2CC2)n2nc(S(=O)(=O)Nc3c(C)ccc(Cl)c3C)nc2n1,WST,K562 (CRL-1573),90 µg/mL
O=c1[nH]c(=O)n([C@H]2C[C@H](O)[C@@H](CO)O2)cc1-c1ccc(Br)s1,cell count,RF,288 µM
Cc1ccc(-n2ncc3c(Nc4ccc(Cl)c(Cl)c4)ncnc32)c(C)c1,,HUH 9B,17 µM
C=C[C@@H](CCC[C@@H](CO)N(CCC(C)C)S(=O)(=O)c1ccc(CO)cc1)NC(=O)[C@@H](NC(=O)OC)C(c1ccccc1)c1ccccc1,microscopy,T lymphoid cells,>10 µM
O=c1[nH]c(=O)n([C@H]2C[C@H](O)[C@@H](CO)O2)cc1/C=C/Cl,cell count,P3HR-1,>70 µM
CCOC(=O)c1ccc(OCCCCCOc2cccc(NC(N)=S)c2)cc1,MTS,Ava5-EG(delta4AB)SEAP,>1 µM
CC(C)(C)OC(=O)NCC(OC(=O)C(O)CO)c1ccc2c(c1)OCO2,,HepG2,>20 µM
CCC[C@@H](CCC[C@@H](CO)N(CCC(C)C)S(=O)(=O)c1ccc(N)cc1)NC(=O)[C@@H](NC(=O)OC)C(c1ccccc1)c1ccccc1,microscopy,T lymphoid cells,>10 µM
Cc1ccc(N2C(=O)C(C)S/C2=N/N=C2\C(=O)Nc3ccc([N+](=O)[O-])cc32)cc1,,MDBK,41 µg/mL
Cc1ccc(-n2c(-c3ccccc3)c(C)c(=O)c3cc(C(C)C)ccc32)cc1,MTT,HeLa S3,>2.5 µg/mL
CCOC(=O)CCCCCOc1cccc(CN(C(=O)c2ccc(-c3ccc4c(c3)OCCO4)cc2)C(C)C)c1,,BJ,>20 µM
CCn1c2ccccc2c2cc(NC(N)=S)ccc21,MTS,Ava5-EG(delta4AB)SEAP,>1 µM
COc1ccc(NC(=O)NCC2CCc3ccccc3N2)c(OC)c1,,PBMC,50 µM
CN[C@H](C(=O)NC(C)(C)CCC[C@@H](CO)N(C(C)C)S(=O)(=O)c1ccc(N)cc1)C(c1ccccc1)c1ccccc1,microscopy,T lymphoid cells,>10 µM
Cc1ccccc1-n1ncc2c(NCCc3c[nH]c4ccccc34)ncnc21,,HUH 9B,24 µM
O=C(NCC1CCc2ccccc2N1)Nc1ccc(Cl)c(Cl)c1,,PBMC,6.3 µM
NS(=O)(=O)c1ccc(CCNc2ncnc3c2cnn3-c2cccc(Cl)c2)cc1,,HUH 9B,30 µM
O=c1[nH]c(=O)n([C@H]2C[C@H](O)[C@@H](CO)O2)cc1/C=C/Br,cell count,OMK,>900 µM
Cc1c(-c2ccccc2)n(C)c2ccc(NCC(C)C)cc2c1=O,MTT,HELA-OHIO,>5 µg/mL
Cc1cc(C2CC2)n2nc(S(=O)(=O)Nc3ccccc3C(F)(F)F)nc2n1,WST,K562 (CRL-1573),>128 µg/mL
O=C(NCCc1ccc2c(n1)NCCC2)NCc1ccncc1,,PBMC,50 µM
O=C(CN1CCN(c2cccc(-c3cc(=O)n(O)c4ncccc34)c2)CC1)N1CCCC1,,HeLa,<100 µM
CC[C@@H](CCC[C@@H](CO)N(C(C)C)S(=O)(=O)c1ccc(CO)cc1)NC(=O)[C@@H](N)C(c1ccccc1)c1ccccc1,microscopy,T lymphoid cells,>10 µM
CCOC(OCC)C1=NCCc2cc(OC)c(OC)cc21,,HEK 293,<7.5 µM
Cc1cn(-c2cccc(CCNC(=O)Nc3cccc(F)c3)n2)cn1,,PBMC,50 µM
NCc1cccc(-c2cccc(-c3ccnc4c3c(O)cc(=O)n4O)c2)c1,,HeLa,<100 µM
O=C(NCCc1ccc2c(n1)NCCC2)NC(c1ccccc1)c1ccccc1,,PBMC,50 µM
Cc1ccc(NC(=S)N=Nc2c(O)[nH]c3ccc([N+](=O)[O-])cc23)cc1,,MDBK,17 µg/mL
O=c1cc(CCc2ccccc2)c2cccnc2n1O,,HeLa,<100 µM
O=C(NCCc1ccc2c(n1)NCCC2)Nc1ccnn1-c1ccccc1,,PBMC,2.6 µM
CCn1c(-c2ccccc2)cc(=O)c2c(C)c(OCC(C)C)ccc21,MTT,HELA-OHIO,>4 µg/mL
Nc1nc(=O)n([C@H]2C[C@H](O)[C@@H](CO)O2)cc1/C=C/Cl,cell count,OMK,278 µM
C=CCCC1=NCC(O[Si](C)(C)C(C)(C)C)c2cc(OC)c(OC)cc21,,HEK 293,<7.5 µM
COC(=O)N[C@H](C(=O)NC(C)(C)CCC[C@@H](CO)N(C(C)C)S(=O)(=O)c1ccc(N)cc1)C(c1ccccc1)c1ccccc1,microscopy,T lymphoid cells,>10 µM
NC(=S)Nc1cccc(NCCCc2ccccc2)c1,MTS,Ava5-EG(delta4AB)SEAP,>1 µM
COc1ccc(-n2c(-c3ccccc3)c(C)c(=O)c3cc(C(C)C)ccc32)cc1,MTT,HeLa S3,>2.5 µg/mL
Cc1ccc(-n2ncc3c(Nc4ccc(N5CCOCC5)c(C#N)c4)ncnc32)c(C)c1,,HUH 9B,>50 µM
CCNC(=S)N=Nc1c(O)[nH]c2ccc([N+](=O)[O-])cc12,,MDBK,>50 µg/mL
CS(=O)(=O)Nc1ccccc1-c1cc(=O)n(O)c2ncccc12,,HeLa,<100 µM
COC(=O)N[C@H](C(=O)N[C@H](CCC[C@@H](CO)N(CCC(C)C)S(=O)(=O)c1ccc(CO)cc1)C(C)(C)C)C(c1ccccc1)c1ccccc1,microscopy,T lymphoid cells,>10 µM
NC(=S)Nc1cccc(OCCCCCOc2ccc(Cc3ccccc3)cc2)c1,MTS,Ava5-EG(delta4AB)SEAP,>1 µM
Cc1cc(C)n2nc(S(=O)(=O)Nc3ccccc3C(F)(F)F)nc2n1,WST,K562 (CRL-1573),>128 µg/mL
NC(=S)Nc1cccc(OCCCCCOc2cccnc2)c1,MTS,Ava5-EG(delta4AB)SEAP,>1 µM
CCCN([C@H](CO)CCCC(C)(C)NC(=O)[C@@H](NC(=O)OC)C(c1ccccc1)c1ccccc1)S(=O)(=O)c1ccc(N)cc1,microscopy,T lymphoid cells,>10 µM
S=C(Nc1cccc(OCCCCCOc2ccc(-c3ccccc3)cc2)c1)N1CCCCC1,MTS,Ava5-EG(delta4AB)SEAP,>1 µM
COc1ccc(C[C@H](N)C(=O)N[C@H]2[C@@H](O)[C@H](n3cnc4c(N(C)C)ncnc43)O[C@@H]2CO)cc1,WST,K562 (CRL-1573),0.28 µg/mL
NC(=S)Nc1cccc(OCCCOc2ccccc2-c2ccccc2)c1,MTS,Ava5-EG(delta4AB)SEAP,>1 µM
CCCN(Cc1ccccc1OCC(=O)OCC)C(=O)c1ccc(-c2ccc3c(c2)OCO3)cc1,,BJ,>20 µM
O=C(NCCCc1ccc2c(n1)NCCC2)Nc1ccc(C(F)(F)F)cc1,,PBMC,25 µM
O=c1cc(NCc2cccnc2)c2cccnc2n1O,,HeLa,<100 µM
CCCc1ccccc1NC(=O)NCCc1ccc2c(n1)NCCC2,,PBMC,1.3 µM
CCOC(=O)CCCCCOc1cccc(CN(C(=O)c2ccc(-c3cccc4ccccc34)cc2)C(C)C)c1,,HEK 293,>20 µM
C=CCNC(=S)N=Nc1c(O)[nH]c2ccc([N+](=O)[O-])cc12,,MDBK,>50 µg/mL
Cc1cccc(CNC(=O)NCCc2cccc(-n3ccnc3)n2)c1,,PBMC,50 µM
COc1cc(OC)cc(-c2ccc(C(=O)N(Cc3cccc(OCCCCCC(=O)OC(=O)O)c3)C(C)C)cc2)c1,,BJ,>20 µM

6 of the rows above, restated:

structure | read by | cell line | value
NCc1cccc(-c2cccc(-c3ccnc4c3c(O)cc(=O)n4O)c2)c1 |  | HeLa | <100 µM
O=c1[nH]c(=O)n([C@H]2C[C@H](O)[C@@H](CO)O2)cc1/C=C/Cl | cell count | P3HR-1 | >70 µM
O=c1[nH]c(=O)n([C@H]2C[C@H](O)[C@@H](CO)O2)cc1-c1ccc(Br)s1 | cell count | RF | 288 µM
Nc1nc(=O)n([C@H]2C[C@H](O)[C@@H](CO)O2)cc1/C=C/Cl | cell count | OMK | 278 µM
C=C[C@@H](CCC[C@@H](CO)N(CCC(C)C)S(=O)(=O)c1ccc(CO)cc1)NC(=O)[C@@H](NC(=O)OC)C(c1ccccc1)c1ccccc1 | microscopy | T lymphoid cells | >10 µM
Cc1ccccc1-n1ncc2c(NCCc3c[nH]c4ccccc34)ncnc21 |  | HUH 9B | 24 µM